The data set concerns HUVECs. The experiment in a line: Transcellular transport of horse radish peroxidase (HRP) across a cell monolayer on filter. It is filed as cell-based, human. The settings on record: +5 μM biovector. As to the method:
Transport of horse radish peroxidase (HRP) across a cellular membrane was measured using the apparatus shown schematically in FIG. 4, with the addition of biovectors (BVS1 etc). The apparatus comprises upper and lower compartments (1, 2 respectively) separated by a filter 3 on which the cells 4 are grown. HRP and biovectors are added to the medium in the upper compartment 1, and HRP is assayed in the lower compartment 2.
Transcellular transport was determined as above for the HUVECs studies. […]

For “polysulfonylnaphthylurea [PSNU, reference compound]”, the “Specific resistance Across monolayer” value is over 350 Ohms/cm^−2.

(Values after patent US7049295B2, “Compounds and use thereof to modify transport across cell membranes” (Biotransys Limited, priority 1999, dated 2006).)
